# Sequence variants of PSTVd loop 6 after infection

Values reported by Wu et al. 2024 (doi:10.1371/journal.ppat.1012142).

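Three N. benthamiana plants were inoculated with the whole mutant pool. Progeny were sequenced from the inoculated region (day 5), the margin of the inoculated leaf (day 10) and systemic leaves (day 12).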

The pool varies loop 6 of the PSTVd intermediate strain in the pattern UNNNCGNNNG; wild type is UGACCGCGAG (upper and lower strand joined, each 5' to 3', the first 5 letters being the upper strand, closing pairs included).

Values are reads per thousand in the sample; higher means more abundant, 0 means not found. Each value is the mean of three plants. "Pool" is the share in the plasmid pool used as inoculum, on the same scale. The inoculated region was read from the minus strand, the other sites from the plus strand. The authors trace changes outside the varied positions to PCR and sequencing errors or to mutation in the plant; presence does not show that a variant is infectious alone. For reference, wild type rose from 20.7 per thousand in the pool to 195, 198, 203 (inoculated region), 629, 591, 734 (leaf margin) and 942, 870, 868 (systemic leaves). Samples held 36,220 to 57,551 reads, so the smallest values rest on one or two reads.

sequence	pool	inoculated region	leaf margin	systemic leaves
UGGCCGGUGG	0.170	0.132	0.0176	0
UUAGCGAUGG	0.405	0.0766	0	0.00673
UACACGGCUG	0.196	0.594	0.0460	0
UUCGCGCUCG	0.118	0.113	0.00920	0
UUCGCGCAUG	0.170	0.149	0.00920	0
UAUCCGGAUG	0.248	0.0889	0	0
UACUCGACUG	0.288	0.0770	0.00920	0
UAUCCGAUUG	0.340	0.0714	0.00920	0
UAACCGCCCG	0.196	0.614	0.0668	0
UGGCCUAACG	0.0131	0	0	0
UGCCCGUCGG	0.196	0.107	0.00773	0
UGUACGAACG	0.157	0.125	0.00920	0
UCUGCGCAGG	0.170	0.0715	0.00920	0
UUGACGGUGG	0.261	0.0780	0.0155	0
UUCACGUUCG	0.301	0.101	0.00920	0
UGCACGGUAG	0.235	0.600	0.127	0.0330
UGUGCGGCAG	0.209	0.0481	0.00773	0.0135
UCUACGUGUG	0.196	0.155	0.0155	0
UAUCCGUAAG	0.209	0.130	0.00773	0
UGGUCGGAGU	0.0131	0	0	0
UUUGCGAGUG	0.170	0.0654	0	0
UUAACGUAGG	0.301	0.101	0.0184	0.00684
GGACCGACGG	0.0131	0.0238	0.0155	0
UAUUCGCAAG	0.170	0.0907	0.00773	0
UUACCGGGAG	0.261	0.709	0.118	0.0399
UUUUCGUCUG	0.288	0.0586	0.00773	0
UGGCCGACCG	0.170	0.221	0.0155	0
UUCCCGACGG	0.222	0.0888	0.0169	0
UCAGCGAAUG	0.340	0.108	0.00773	0
UUAACGCUAG	0.170	0.570	0.0852	0
UACUCGGGGG	0.131	0.113	0.00773	0
UUCGCGAGGG	0.157	0.0892	0	0
UUUACGUUCG	0.248	0.102	0.00920	0
UUGCCGCUGG	0.144	0.0897	0	0
UAUGCGUUAG	0.366	0.0825	0.00920	0
UUGGCGCCCG	0.431	0.0721	0	0
UCGGCGGUGG	0.314	0.100	0.0176	0
UUACCGAGGG	0.222	0.149	0.00773	0
UAGGCGUGAG	0.131	0.112	0.00773	0
UGAUCGUUGG	0.431	0.126	0	0
UGAGCGGCAG	0.118	0.655	0.0570	0.0339
UACACGUGGG	0.118	0.0650	0.00920	0
UAGUCGAGUG	0.157	0.101	0.00920	0
UUUCCGAUCG	0.497	0.126	0.0247	0
UAGCCGUGCG	0.261	0.137	0.0445	0
UGAACGAUAG	0.379	0.637	0.189	0
UGAACGGUUG	0.118	0.678	0.0548	0
UGGGCGACUG	0.144	0.0710	0.00773	0
UCGACGGACG	0.131	0.0898	0.00920	0
UGACCGGCGU	0.0131	0	0	0
UUACCGCUUG	0.144	0.137	0.0184	0
UUUGCGCGGG	0.170	0.106	0.00773	0
UCAUCGAGAG	0.183	0.112	0.00773	0
UAUUCGCGAG	0.288	0.172	0.0578	0.0544
UGACCGAUAG	0.471	0.473	10.8	0.139
UAUUCGAGUG	0.170	0.0829	0.00773	0
UACUCUGUCC	0.0131	0	0	0
UUAACGAGUG	0.183	0.101	0.00920	0
UUCACGAGUG	0.314	0.0529	0	0
UACACGUAGG	0.144	0.0960	0	0
UUCACGAUGG	0.314	0.0840	0	0
UCAUCGUGUG	0.235	0.0893	0.00773	0
UACUCGCGGG	0.275	0.101	0	0
UUCCCGACUG	0.222	0.107	0	0
UGGUCGAAUG	0.458	0.0654	0.00773	0
UAGUCGAUAG	0.222	0.0830	0.0387	0
GGACCGAAAG	0.0131	0.553	0.0484	0.0137
GGACCGACUG	0.0131	0.0236	0	0
UGAACGUCAG	0.314	0.719	0.0935	0
UACUCGCACG	0.261	0.0781	0	0
UUGUCAGCGG	0.0131	0	0	0
UGCACGAUCG	0.157	0.0785	0	0
UCUUCGGCCG	0.157	0.107	0.00773	0
UGUGCGGUUG	0.301	0.101	0	0

The first 3 entries again:

* UGGCCGGUGG (pool 0.170) = inoculated region 0.132; leaf margin 0.0176; systemic leaves 0
* UUAGCGAUGG (pool 0.405) = inoculated region 0.0766; leaf margin 0; systemic leaves 0.00673
* UACACGGCUG (pool 0.196) = inoculated region 0.594; leaf margin 0.0460; systemic leaves 0